{"source": "patent US20240132619A1", "key": {"[1]": {"molecular_target": "human serum albumin (HSA) (human) (UniProt P02768)", "test": "ELISA, HSA coated on plate, n = 3"}, "[2]": {"molecular_target": "mouse serum albumin (MSA) (mouse) (UniProt P07724)", "test": "ELISA, MSA coated on plate, n = 3"}}, "data": [{"substance": "SS1-ABD-dsFv-LRGGS-PE24 (LMB-164)", "values": [{"measurement": "Affinity", "setting": "[1]", "result": 0.08, "unit": "nM"}, {"measurement": "Affinity", "setting": "[2]", "result": 0.1, "unit": "nM"}]}]}
